Source: PubChem BioAssay AID624099 (ICCB-Longwood, 2012)
The whole screen tested about 21,000 reagents; below is a part drawn at random. Over the whole deposit, 497 (2.4%) are marked active. 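Higher z means weaker E2 silencing; only reporter increases were scored, and knock-downs that hurt cell survival may mask genuine repressor factors.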 The numbers tell different reagents against one gene apart. Reagent sequences are not shown.

- Assay: 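Human genes that papillomavirus E2 requires to repress the HPV18 LCR promoter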 (primary screen)
- Cell system: human C33A cervical carcinoma cells (HPV-negative) stably expressing BPV1 E2 and an HPV18 LCR luciferase reporter
- Knock-down reagent: siRNA pool against human genes, 40 nM
- Duration: 72 h
- Measurement: 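Per-well luciferase luminescence, z-scored on each plate against the plate mean and SD with control wells left out, then averaged across three replicate plates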
- Reading the numbers: mean z-score and z-score: higher = stronger reporter signal, weaker E2 silencing
- Rule for the call: 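Mean z ≥ 2 together with z ≥ 2 in two or more of the three replicates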

gene | reagent | mean z-score | z-score, replicate A | z-score, replicate B | z-score, replicate C | Call
LOC388278 (retired record) (GeneID 388278) | 1 | -0.54 | -0.81 | -0.68 | -0.15 | inactive
CCR10 (GeneID 2826) | 1 | 2.05 | 2.04 | 2.21 | 1.9 | active
STXBP5 (GeneID 134957) | 1 | -0.56 | -0.77 | -0.58 | -0.32 | inactive
ADISSP (GeneID 54976) | 1 | 1.67 | 1.48 | 1.91 | 1.61 | inactive
CLDN11 (GeneID 5010) | 1 | 0.5 | 0.71 | 0.58 | 0.21 | inactive
BOK (GeneID 666) | 1 | -0.49 | -0.27 | -0.7 | -0.51 | inactive
NPAS2 (GeneID 4862) | 1 | 0.66 | 0.38 | 0.94 | 0.67 | inactive
LOC400584 (retired record) (GeneID 400584) | 1 | -0.7 | -0.68 | -0.53 | -0.89 | inactive
SSU72L2 (GeneID 390031) | 1 | 0.36 | 0.47 | 0.34 | 0.27 | inactive
COPB1 (GeneID 1315) | 1 | -1.22 | -1.59 | -1.03 | -1.03 | inactive
SERP1 (GeneID 27230) | 1 | 0.53 | 0.23 | 0.79 | 0.56 | inactive
ANGPTL3 (GeneID 27329) | 1 | -0.69 | -0.5 | -1.06 | -0.5 | inactive
ZNF397 (GeneID 84307) | 1 | 0.13 | 0.12 | 0.19 | 0.08 | inactive
TRIM43 (GeneID 129868) | 1 | 0.55 | 0.64 | 0.44 | 0.57 | inactive
POLR2M (GeneID 81488) | 1 | -0.06 | -0.02 | -0.1 | -0.05 | inactive
NAP1L2 (GeneID 4674) | 1 | -0.35 | -0.23 | -0.3 | -0.51 | inactive
CDK3 (GeneID 1018) | 1 | 0.26 | -0.43 | 0.11 | 1.09 | inactive
MRPL20-AS1 (GeneID 148413) | 1 | 0.46 | 0.65 | 0.2 | 0.54 | inactive
CCZ1P-OR7E38P (GeneID 389538) | 1 | -0.16 | -0.3 | 0.17 | -0.34 | inactive
DNMBP (GeneID 23268) | 1 | -1.57 | -1.34 | -1.72 | -1.66 | inactive
OR4C15 (GeneID 81309) | 1 | -0.11 | -0.14 | -0.29 | 0.11 | inactive
ALPG (GeneID 251) | 1 | -0.02 | -0.13 | 0.05 | 0.03 | inactive
AP5S1 (GeneID 55317) | 1 | 0.61 | 0.14 | 1.09 | 0.59 | inactive
USP53 (GeneID 54532) | 1 | -0.1 | -0.35 | 0.04 | 0.02 | inactive
USP53 (GeneID 54532) | 2 | 0.27 | 0.26 | 0.18 | 0.37 | inactive
PPRC1 (GeneID 23082) | 1 | 1.18 | 1.26 | 0.94 | 1.33 | inactive
LOC388180 (retired record) (GeneID 388180) | 1 | 2.06 | 2.34 | 1.9 | 1.94 | inactive
RIMKLB (GeneID 57494) | 1 | -1.58 | -1.6 | -1.56 | -1.59 | inactive
ANKRD16 (GeneID 54522) | 1 | -1.32 | -1.22 | -1.29 | -1.45 | inactive
ZNF92 (GeneID 168374) | 1 | -0.5 | -0.56 | -0.27 | -0.68 | inactive
DAPK3 (GeneID 1613) | 1 | 0.59 | 0.55 | 0.63 | 0.58 | inactive
TRPM5 (GeneID 29850) | 1 | -0.1 | 0.23 | -0.31 | -0.23 | inactive
CDKN2AIP (GeneID 55602) | 1 | 0.84 | 0.95 | 0.99 | 0.58 | inactive
RPL7P47 (GeneID 146110) | 1 | -0.22 | 0.01 | 0.05 | -0.71 | inactive
ANKS1A (GeneID 23294) | 1 | -0.52 | -0.86 | -0.41 | -0.3 | inactive
CXorf66 (GeneID 347487) | 1 | 0.3 | 0.22 | 0.52 | 0.16 | inactive
PRKG1 (GeneID 5592) | 1 | -0.13 | 0.02 | -0.14 | -0.26 | inactive
TMEM198 (GeneID 130612) | 1 | 0.37 | 0.25 | 0.49 | 0.38 | inactive
LINC01697 (GeneID 284825) | 1 | 0.18 | 0.28 | -0.04 | 0.3 | inactive
